Measured values: ChEMBL document CHEMBL1671710, “Different classes of antibiotics differentially influence shiga toxin production” (2010)

Experiments:
Escherichia coli [1] = conditions: O157:H7 PT-40
Escherichia coli [2] = conditions: C600::H19B
Escherichia coli [3] = conditions: O157:H7 PT-32
Escherichia coli [4] = conditions: C600::H19B; remark: listed apart in the source

Measured: MIC

GENTAMICIN
0.5 µg/mL: all assays above
